Pooled drug test results. Numbers come from NIAID ChemDB, via PubChem.

Common to all: whole-cell or culture tests; organism: Human cytomegalovirus; read by: plaque count; read-out: EC50

Rows are shuffled and stem from different studies. ECn is the concentration giving n% inhibition of infection, replication or growth. Blank or dashed fields: not listed here.

| structure | strain | cells | value |
|---|---|---|---|
| NNc1nnnc2c1ncn2[C@@H]1O[C@H](CO)[C@@H](O)[C@H]1O | - | HFF | >100 µM |
| O=c1[nH]c(=O)n([C@H]2C[C@H](O)[C@@H](CO)O2)cc1C(O)C(Cl)I | AD169 | HFF | >231 µM |
| Cn1cc(C(=O)NCc2ccc(Cl)cc2)c(=O)c2cc(CN3CCOCC3)ccc21 | AD169-M1 | VERO | 4 µM |
| CCCSc1nc(N)nc2c1ncn2/C=C1/C[C@@H]1CO | - | HFF | 3 µM |
| CN(C)c1ccc(Sc2ccc(NC3CCCCCC3)cc2)cc1 | AD169 | - | 48 µM |
| Nc1nc2c(ncn2COCC(O)CCP(=O)(O)O)c(=O)[nH]1 | AD169 | MRC-5 | 549 µM |
| CCCCCCCCCCCCCCCCCOC[C@H](COP1(=O)CO[C@@H](Cn2ccc(N)nc2=O)CO1)OCc1ccccc1 | AD169 | HFF | 0.013 µM |
| CCCCCCCCc1cc2cnc(OCCC(C)C)nc2o1 | DAVIS | HEL | 20 µM |
| CCOP(=O)(CCC(COC)OCn1cnc2c(Cl)nc(N)nc21)OCC | AD169 | MRC-5 | 112 µM |
| CSc1nnc(-c2ccccc2S(=O)(=O)NC(C)C)o1 | DAVIS | HEL | >100 µM |
| Nc1ncc2ncn(C[C@@H]3CC[C@H](P(=O)(O)O)O3)c2n1 | - | WI-38 | >50 µg/mL |
| Nc1nc2c(ncn2COC2CCP(=O)([O-])OC2)c(=O)[nH]1 | AD169 | MRC-5 | 5 µg/mL |
| COCC(CCP(=O)(O)O)OCn1cnc2c(=O)[nH]c(N)nc21 | AD169 | MRC-5 | 479 µM |
| C=C1[C@H](O)[C@H](CO)O[C@@H]1n1ccc(N)nc1=O | WF1 | FLOW 2002 | 100 µg/mL |
| [O-][n+]1onc2ncnc(N3CC[N+]4(CC3)CC[N+]3(CCN(c5ncnc6no[n+]([O-])c56)CC3)CC4)c21 | - | MRC-5 | 12.3 µM |
| COC(=O)C(Cc1c[nH]c2ccccc12)NP(=O)(O)OCC1C/C1=C/n1cnc2c(N)ncnc21 | TOWNE | HFF | 1.5 µM |
| CCCCCCCCCCCCCCCCCCOCCOP1(=O)CO[C@@H](Cn2ccc(N)nc2=O)CO1 | AD169 | HFF | 0.0427 µM |
| Nc1ccn([C@H]2O[C@@H](CO)[C@H](O)[C@@H]2O)c(=O)n1 | WF1 | FLOW 2002 | >100 µg/mL |
| CCCCCCc1cc2cnc(OC3CCCCC3)nc2o1 | DAVIS | HEL | >5 µM |
| Nc1nc2c(ncn2COC(CO)CO)c(=O)[nH]1 | AD169 | MRC-5 | 0.9 µM |
| CCCCc1cc2cn(CCC(C)C)c(=O)nc2o1 | DAVIS | HEL | >200 µM |
| O=[N+]([O-])c1ccc(CSc2nnnc3c2ncn3[C@@H]2O[C@H](CO)[C@@H](O)[C@H]2O)cc1 | - | HFF | >100 µM |
| COc1c(C#N)c2cc(Cl)c(Cl)cc2n1[C@@H]1O[C@H](CO)[C@@H](O)[C@H]1O | - | HFF | 7 µM |
| Nc1nc2c(ncn2COC(CO)CO)c(=O)[nH]1 | - | HFF | 7.4 µM |
| Oc1ccc(Oc2ccc(NC3CCCCC3)cc2)cc1 | AD169 | - | 3.6 µM |
| COC(c1cn([C@H]2C[C@H](O)[C@@H](CO)O2)c(=O)[nH]c1=O)C(Cl)I | AD169 | HFF | >214 µM |
| Nc1ccn([C@H]2O[C@@H](CO)[C@@H](O)[C@@H]2O)c(=O)n1 | WF1 | FLOW 2002 | 100 µg/mL |
| Nc1nc2c(ncn2CO[C@H](CO)CCP(=O)(O)O)c(=O)[nH]1 | AD169 | MRC-5 | 66 µM |
| Nc1nc2c(ncn2COC(CO)CO)c(=O)[nH]1 | AD169 | HEL | 15.7 µM |
| Nc1nc2c(ncn2COC(CO)CO)c(=O)[nH]1 | TOWNE | HFF | 8.7 µM |
| CC(C)NS(=O)(=O)c1ccccc1C(=O)N/N=C/c1ccc(F)cc1 | DAVIS | HEL | >100 µM |
| CCCCCCc1cc2cnc(OC3CCCC3)nc2o1 | AD169 | HEL | 14 µM |
| O=C(NCc1ccc(Cl)cc1)c1c[nH]c2c(F)cccc2c1=O | Clinical isolates | - | 11.9 µM |
| CCC(C)Nc1ccc(Oc2ccc(O)c(F)c2)cc1 | AD169 | - | 15 µM |
| Nc1nc2c(ncn2CO[C@@H](CO)CCP(=O)(O)O)c(=O)[nH]1 | AD169 | MRC-5 | 4.2 µM |
| N#Cc1c(Cl)n([C@@H]2O[C@H](CO)[C@@H](O)[C@H]2O)c2cc(Cl)c(Cl)cc12 | - | HFF | 0.55 µM |
| CCCCCCCC/C=C\CCCCCCCOCCCOP1(=O)CO[C@@H](Cn2ccc(N)nc2=O)CO1 | AD169 | HFF | 0.0025 µM |
| CNc1c(C=O)c2cc(Cl)c(Cl)cc2n1[C@@H]1O[C@H](CO)[C@@H](O)[C@H]1O | - | HFF | 1.5 µM |
| Nc1nc2c(ncn2COC(CO)CO)c(=O)[nH]1 | WF1 | FLOW 2002 | 0.1 µg/mL |
| CNc1nnnc2c1ncn2[C@@H]1O[C@H](CO)[C@@H](O)[C@H]1O | - | HFF | >100 µM |
| NC1=NCCN1CC(=O)O | C8708 | MRC-5 | 9800 µM |
| [O-][n+]1onc2ncnc(N3CC[N+]4(CC3)CC[N+]3(CCN(c5ncnc6no[n+]([O-])c56)CC3)CC4)c21 | - | MRC-5 | 12.3 µM |
| CCOP(=O)(O)CCC(C)OCn1cnc2c(=O)[nH]c(N)nc21 | AD169 | MRC-5 | 660 µM |
| CN(C)c1cccc2c(S(=O)(=O)Nc3ccc(NC(=O)C(C)(C)CO)cc3)cccc12 | DAVIS | - | 0.52 µM |
| Nc1ncnc2c1ncn2C=C1CC1CO | RCdelta97.19 | - | 3.9 µM |
| CN(c1ccc(Oc2ccc(O)cc2)cc1)C1CC1 | AD169 | - | 5.7 µM |
| Nc1nc2c(ncn2/C=C2/CC2(CO)CO)c(=O)[nH]1 | RCdelta97 | HFF | 25 µM |
| Nc1nc(OCC2CC2)c2ncn(/C=C3/C[C@@H]3CO)c2n1 | - | HFF | 1.7 µM |
| Nc1nc2c(ncn2C[C@@H]2CC[C@H](P(=O)(O)O)O2)c(=O)[nH]1 | - | MRC-5 | 1.6 µg/mL |
| COc1cc2oc(-c3ccccc3)cc(=O)c2c(OC)c1OC | TOWNE | MRC-5 | 8 µg/mL |
| COc1ccc(Cn2cc(C(N)=S)c3c(N)ncnc32)cc1 | TOWNE | HFF | 0.4 µM |
| COC(c1cn([C@H]2C[C@H](O)[C@@H](CO)O2)c(=O)[nH]c1=O)C(Br)I | AD169 | HFF | >204 µM |
| CCCCCCCCCCCCOCCCOP(=O)(O)CO[C@H](CO)Cn1ccc(N)nc1=O | AD169 | HFF | 0.01 µM |
| CCCCCOc1nc(N)nc2c1ncn2/C=C1/C[C@@H]1CO | - | HFF | 1.4 µM |
| Nc1ccn([C@@H]2CC[C@H](CO)O2)c(=O)n1 | WF1 | FLOW 2002 | 10 µg/mL |
| Nc1nc2c(ncn2CSC(CO)CO)c(=O)[nH]1 | AD169 | HFF | >100 µM |
| C/C(=N/Nc1nc(-c2ccc(Cl)cc2)cs1)c1ccc(NC(=O)CN2C(=O)c3ccccc3S2(=O)=O)cc1 | DAVIS | HEL | 20 µM |
| CCCCCCCCCCCCCCCCOCCCOP(=O)(O)OCC(CO)OCn1cnc2c(=O)[nH]c(N)nc21 | Toledo | MRC-5 | 3.3 µM |
| CCCCCCCCCCCCCCCCCCCCCCCCOP1(=O)CO[C@@H](Cn2ccc(N)nc2=O)CO1 | AD169 | HFF | 0.29 µM |
| CCN(C)c1ccc(Oc2ccccc2)cc1 | AD169 | - | >100 µM |
| CCOP(=O)(O)CCCOCn1cnc2c(=O)[nH]c(N)nc21 | AD169 | MRC-5 | 139 µM |
| CCCCCCCCc1cc2cn(CCC(C)C)c(=O)nc2o1 | AD169 | HEL | >200 µM |
| Cn1c(=O)ccn(/C=C2/CC2(CO)CO)c1=O | - | HFF | >100 µM |
| CCCCCCCCc1cc2cn(C3CCCC3)c(=O)nc2o1 | DAVIS | HEL | >20 µM |
| Nc1nc(N)c2ncn(C[C@@H]3CC[C@H](P(=O)(O)O)O3)c2n1 | - | WI-38 | >10 µg/mL |
| CCOP(=O)([O-])CCCOCn1cnc2c(=O)[nH]c(N)nc21 | AD169 | MRC-5 | 16 µg/mL |
| CCOP(=O)(O)CCC(CO)OCn1cnc2c(=O)[nH]c(N)nc21 | AD169 | MRC-5 | 27 µM |
| CCCCCCCCCCCCOCCCOP1(=O)CO[C@@H](Cn2ccc(N)nc2=O)CO1 | AD169 | HFF | 0.0065 µM |
| CCCCCCc1cc2cn(CCC(C)C)c(=O)nc2o1 | AD169 | HEL | >50 µM |
| Nc1nc(NCC2CC2)c2ncn(/C=C3/C[C@@H]3CO)c2n1 | - | HFF | 52 µM |
| CCCCNc1c(C#N)c2cc(Cl)c(Cl)cc2n1[C@@H]1O[C@H](CO)[C@@H](O)[C@H]1O | - | HFF | 15 µM |
| COC(c1cn([C@H]2C[C@H](O)[C@@H](CO)O2)c(=O)[nH]c1=O)C(Cl)Br | AD169 | HFF | >250 µM |
| Nc1nc(N)c2ncn(C[C@@H]3CC[C@@H](P(=O)(O)O)O3)c2n1 | - | WI-38 | >10 µg/mL |
| COC(c1cn([C@H]2C[C@H](O)[C@@H](CO)O2)c(=O)[nH]c1=O)C(I)I | AD169 | HFF | >186 µM |
| Oc1ccc(Oc2ccc(NC3CCCC3)cc2)cc1 | AD169 | - | 7.1 µM |